Reference: article PMC9605875, “Structure of trimeric pre-fusion rabies virus glycoprotein in complex with two protective antibodies” (2022)

Target: RVC20 IgG conjugated to Alexa Fluor 647
Assay: Flow cytometry (BD LSRFortessa), median fluorescence intensity
Settings: pH 5.8-7.4, room temperature, PBS at neutral pH, 130 mM NaCl at pH 5.8, PBS (pH 7.3 in Methods, 7.4 in the Figure 2 legend), 50 mM Bis-Tris

| Substance | MFI after binding at pH 5.8 as a proportion of that at pH 7.4 (ratio of MFI (pH 5.8 / pH 7.4)) |
| --- | --- |
| RABV-G wild type, untagged, cell-surface expressed | 0.11 |
| RABV-G wild type, C-terminal GFP-His6 fusion, cell-surface expressed | 0.12 |
